From patent publication US20070275953A1 (priority 2003, published 2007) come the findings set out here.

SMILES strings stand for the structures. Where only a bound is given, the exact number is not on record here.

The data set relates to HIV-1 with WT (wild type) RT in P4 cells. Description: Anti-HIV assay on P4 cell line, WT RT. Type of data set: cell-based.
`CCOC(=O)c1c(OC2CC(C)CC(C)C2)c(CC)c(C)[nH]c1=O` (single isomer, unassigned) [Z37A]: the “SI (selectivity index = CC50/EC50)” value is listed as 263. For `CCc1c(C)[nH]c(=O)c(CO)c1OC1CC(C)CC(C)C1` (centres unmarked) [Z45inv] the value was 3304. Regarding `CCc1c(C)[nH]c(=O)c(CSC(C)=O)c1OC1CC(C)CC(C)C1` (centres unmarked) [Z114], the “SI (selectivity index = CC50/EC50)” value is 1143. For `CCOC(=O)c1c(OC2CCCCCCC2)c(CC)c(C)[nH]c1=O` [Z54] the value was 43; for `CCOC(=O)c1c(OC2CCCCC2Cl)c(CC)c(C)[nH]c1=O` (centres unmarked) [Z12], greater than 32; for `CCc1c(C)[nH]c(=O)c(CN=[N+]=[N-])c1OC1CC(C)CC(C)C1` (centres unmarked) [Z153], greater than 54000.

On to `CCOC(=O)c1c(OC2CC(C)CC(C)C2)c(CC)c(C)[nH]c1=O` (single isomer, unassigned) [Z37inv], for which the “SI (selectivity index = CC50/EC50)” value came to 1778. As for `CCOC(=O)c1c(OC2CCCCCC2)c(CC)c(C)[nH]c1=O` [Z25], the “SI (selectivity index = CC50/EC50)” value worked out at 168. `CCc1c(C)[nH]c(=O)c(CSCCOC(=O)CCl)c1OC1CC(C)CC(C)C1` (centres unmarked) [Z122]: the “SI (selectivity index = CC50/EC50)” value amounted to 27500. For `CCOC(=O)c1c(OC2CCCC(C)C2)c(CC)c(C)[nH]c1=O` (centres unmarked) [Z30] the value was greater than 192; for `CCc1c(C)[nH]c(=O)c(C)c1OC1CC(C)CC(C)C1` (centres unmarked) [Z154], greater than 80000.
